Reference: patent publication US20230159453A1 (COCRYSTAL PHARMA, INC., priority 2020, published 2023)

Protein sequences, listed by entry. Tags and fused reporters are not part of them. Residues count along the entry.
UniProt Q83883, 1101-1281 limits assumed: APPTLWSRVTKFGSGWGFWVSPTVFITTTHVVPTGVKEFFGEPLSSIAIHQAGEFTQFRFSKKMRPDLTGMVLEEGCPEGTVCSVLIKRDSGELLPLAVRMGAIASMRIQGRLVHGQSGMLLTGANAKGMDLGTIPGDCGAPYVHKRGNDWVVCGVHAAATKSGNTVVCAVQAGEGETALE

Columns and labels:
SARS2 protease = SARS2 protease (Severe acute respiratory syndrome coronavirus 2, UniProt P0DTD1); assay: SARS-CoV-2 protease inhibition assay (SARS2 FRET protease assay); assay type: biochemical; details: SARS-CoV-2 protease 25 nM, peptide substrate 1.3 μM, 30 minutes at 30° C., compounds 20 μM to 1.0 nM
Noro protease = Noro protease (Norovirus, UniProt Q83883); details: FRET, peptide substrate 10 μM, 90 minutes at 37° C., compounds 200 μM to 10.2 nM

For `COc1cccc2[nH]c(C(=O)N[C@@H](CC3CCCCC3)C(=O)NC(CC3CC4(CCCCC4)NC3=O)C(=O)C(=O)NC3CC3)cc12` (some centres unmarked), the IC50 (SARS2 protease) was 44.5 nM and the IC50 (Noro protease) was 37100 nM.

`O=CC(CC1CC2(CCCCC2)NC1=O)NC(=O)[C@H](CC1CCCCC1)NC(=O)OC(Cc1cccc(Cl)c1)c1cccc(Cl)c1` (some centres unmarked) gave an IC50 (SARS2 protease) of 386 nM and an IC50 (Noro protease) of 38300 nM.

In the case of `CC(C)C[C@H](NC(=O)OC1(Cc2cccc(Cl)c2)CC1)C(=O)N[C@@H](C[C@@H]1CCNC1=O)C(O)S(=O)(=O)O` (some centres unmarked), the IC50 (SARS2 protease; tested form: Na salt) is reported as 300 nM.
